In PubChem BioAssay AID1918969 (ICCB-Longwood Screening Facility, Harvard Medical School, 2023) one finds inhibition data, which are given here for 29 compounds.

Molecules are shown by their SMILES. The list shows a part of the results, in another mix than the full data. Activity calls are given as the source filed them. No stated cut-off is given here; in the data, active means inhibition above about 27% (passing the limit was not always enough); inactive means the rest.

The term inhibition denotes the drop in the measured response relative to a control, in per cent.

In the assay the test system is HCMV UL50-UL53 nuclear egress complex (human cytomegalovirus). Nature of the assay: inhibitors of HCMV UL50-UL53 interaction, biochemical, HTRF (AID 1918969). The settings on record: normalized percent inhibition, active compounds read high, concentration not given here.
As for `CCOC(=O)N1CCC(Nc2cccc(C)c2)CC1`, the inhibition was inactive: -15.5%. Then `O=C(NCC1(N2CCOCC2)CCCCC1)c1ccc2nc[nH]c2c1`, with inactive: -14.3%. The figure for `O=C1CCN(Cc2ccccc2)CC1` is inactive: 6.2%; for `O=C(NCC1(N2CCOCC2)CCCCC1)c1ccc(Cl)cc1` it is inactive: 11.9%; for `COc1ccccc1C(=O)NCC1(N2CCOCC2)CCCCC1` it is inactive: -15.6%.

On to `Cc1cc(C)c2c(C)c(C(=O)NCC3(N4CCOCC4)CCCCC3)oc2c1`, for which the inhibition is inactive: 1.3%. As for `CCOC(=O)N1CCC(Nc2ccc(F)cc2)CC1`, the inhibition was inactive: -8.9%. Then `Cc1c(C(=O)NCC2(N3CCOCC3)CCCCC2)oc2cc(Br)ccc12`, with inactive: -1.5%. Then `CC1CN(CCc2ccccc2)CCC1=O` (centres undefined), with inactive: -15.4%. Then `N#CC1(Nc2ccccc2)CCN(Cc2ccccc2)CC1`, with inactive: -10.9%; and `CCCN1CCC(Nc2ccc(OC)c(OC)c2)CC1`, with inactive: -21.4%. Take `Cc1ccccc1NC1CC(C)(C)NC(C)(C)C1`: the inhibition was inactive: -4.4%.

For `COc1ccc(C(=O)NCC2(N3CCCCC3)CCCCC2)cc1`, the inhibition is inactive: -15.2%. Then `Cc1c(C(=O)NCC2(N3CCOCC3)CCCCC2)oc2ccc(Cl)cc12`, with inactive: 3.3%; and `Cc1c(C(=O)NCC2(N3CCOCC3)CCCCC2)oc2ccc(Br)cc12`, with inactive: 12.1%; and `Cc1c(C(=O)NCC2(N(C)C)CCCCC2)oc2ccc(Br)cc12`, with inactive: -9.1%. Then `NC(=O)C1(Nc2ccc(F)cc2)CCNCC1`, with inactive: -26%. On to `c1ccc(CN2CCC(Nc3ccc4c(c3)OCO4)CC2)cc1`, for which the inhibition is inactive: -19.5%. Then `O=C(NCC1(N2CCOCC2)CCCCC1)c1ccccc1Br`, with inactive: -3.1%; and `Cc1ccc(C(=O)NCC2(N(C)C)CCCCC2)o1`, with inactive: -27.3%.

For the compound `CCCCOc1ccccc1C(=O)NCC1(N2CCOCC2)CCCCC1`, the inhibition is inactive: -6.8%.

As for `Cc1ccc2c(C)c(C(=O)NCC3(N(C)C)CCCCC3)oc2c1C`, the inhibition is inactive: -4.8%.

For `CCCOc1cccc(C(=O)NCC2(N3CCOCC3)CCCCC2)c1`, the inhibition was inactive: 0.2%. The figure for `Cn1nc(C(=O)NCC2(N3CCCCC3)CCCCC2)c2ccccc2c1=O` is inactive: -24.4%; for `CCOc1ccc(C(=O)NCC2(N3CCOCC3)CCCCC2)cc1` it is inactive: -10.4%; for `O=C(NCC1(N2CCOCC2)CCCCC1)c1ccccc1` it is inactive: -17.1%. The figure for `CCCN1CCC(Nc2cc(OC)cc(OC)c2)CC1` is inactive: -3.2%; for `Cc1c(C(=O)NCC2(N3CCOCC3)CCCCC2)oc2c(Cl)cccc12` it is inactive: -32.3%; for `O=C(NCC1(N2CCOCC2)CCCCC1)c1ccccc1[N+](=O)[O-]` it is inactive: -25.1%.
